Pooled drug test results. Numbers come from NIAID ChemDB, via PubChem.

All rows: growth or infection tests; species: Mycobacterium tuberculosis

MIC bound comes from a single tested concentration. Inhibition is in % at the dose shown (toxicity tests: loss of growth or viability). Blank or dashed fields: not listed here. ECn: concentration that inhibits the pathogen or its effect by n%. Rows are shuffled and stem from different studies.

O=C(Nc1ccc(NC2=NCCN2)cc1)c1cc(C(=O)Nc2ccc(NC3=NCCN3)cc2)cc([N+](=O)[O-])c1 ; method: resazurin ; endpoint: inhibition ; strain or isolate: H37Rv ; tested at: 6.25 µg/mL ; value: 83%
O.O=C(O)c1ccc(S(=O)(=O)[O-])cc1C(=O)O.[K+] ; endpoint: MIC ; strain or isolate: H37Rv ; value: >100 µg/mL
NC1CCN(c2nc3c(cc2F)c(=O)c(C(=O)O)cn3-c2ccc(F)cc2F)C1 ; endpoint: MIC ; strain or isolate: ATCC 35827 ; value: >8 µg/mL
NNC(=O)c1ccccc1O ; endpoint: MIC ; strain or isolate: H37Rv ; value: 25 µg/mL
CCOC(=O)Nc1cc(NCC(=O)CN(C)c2ccccc2)c([N+](=O)[O-])c(N)n1 ; endpoint: EC50 ; strain or isolate: H37Rv ; value: >12.5 µg/mL
CCOC(=O)Nc1ccc(C(=O)O)c(O)c1 ; endpoint: MIC ; strain or isolate: H37Rv ; value: 100 µg/mL
CN[C@@H]1[C@H](O[C@H]2[C@H](O[C@H]3[C@H](O)[C@@H](O)[C@H](N=C(N)N)[C@@H](O)[C@@H]3N=C(N)N)O[C@@H](C)[C@]2(O)C=O)O[C@@H](CO)[C@H](O)[C@H]1O ; endpoint: MIC ; strain or isolate: TN3432 (W) ; value: >2 µg/mL
O=S(=O)([O-])c1ccc(Cl)c(Cl)c1.[Na+] ; endpoint: MIC ; strain or isolate: H37Rv ; value: >100 µg/mL
CC1(C)OCC2OC3(C(=O)O)OC(C)(C)OC3C2O1 ; method: BACTEC ; endpoint: inhibition ; strain or isolate: H37Rv ; tested at: 12.5 µg/mL ; value: 33%
Cl.Nc1ccc2c(c1)S(=O)(=O)c1ccccc1O2 ; endpoint: MIC ; strain or isolate: H37Rv ; value: >100 µg/mL
Cc1c(N=Nc2cccc(Cl)c2Cl)c(-c2ccccc2)nn1C(=S)S ; method: BACTEC ; endpoint: MIC bound ; strain or isolate: H37Rv ; value: ≤128 µg/mL
CC(C)=CCC/C(C)=C/CNCCN1CCCC2CCCCC21 ; endpoint: MIC ; value: 25 µM
COc1ccc(Cl)c(C)c1 ; endpoint: MIC ; strain or isolate: H37Rv ; value: >100 µg/mL
CCOC(=O)Nc1cc(N)c2[nH]c(-c3ccccc3)nc2n1 ; endpoint: inhibition ; strain or isolate: H37Rv ; tested at: 12.5 µg/mL ; value: 0%
O=C1OCC2C(=O)N3Cc4nc5ccccc5cc4C3OCC12 ; method: BACTEC ; endpoint: MIC bound ; strain or isolate: H37Rv ; value: >12.5 µg/mL
c1ccc(C(CCNCCN[C@H]2C[C@@H]3CC[C@H]2C3)c2ccccc2)cc1 ; endpoint: MIC ; value: 12.5 µM
NNC(=O)C(=O)n1ccnc1 ; method: BACTEC ; endpoint: inhibition ; strain or isolate: H37Rv ; tested at: 12.5 µg/mL ; value: 30%
Cc1ccc(C(=O)c2ccccc2Cl)cc1 ; endpoint: MIC ; strain or isolate: H37Rv ; value: 50 µg/mL
COc1ccc2c(c1)[n+](=O)c(C(=O)CC(=O)C(=O)Nc1cccc(Cl)c1C)c(C)n2[O-] ; method: BACTEC ; endpoint: inhibition ; strain or isolate: H37Rv ; tested at: 12.5 µg/mL ; value: 27%
CC(NCCNC1CCCCCCC1)c1cccc2ccccc12 ; endpoint: MIC ; value: 25 µM
CCN(CC)C(=S)SCc1c(Cl)c(Cl)c(Cl)c(Cl)c1Cl ; method: BACTEC ; endpoint: MIC ; strain or isolate: H37Rv ; value: ≥128 µg/mL
O=C1CC(c2ccccc2)Oc2cc(F)ccc21 ; endpoint: inhibition ; strain or isolate: H37Rv ; tested at: 12.5 µg/mL ; value: 7%
FC(F)(F)c1ccc(CNCCNCCC2=CCCCC2)cc1 ; endpoint: MIC ; value: 50 µM
COC(O)C1OC(c2ccccc2)OC2C(CO)OC(c3ccccc3)OC12 ; method: BACTEC ; endpoint: MIC bound ; strain or isolate: H37Rv ; value: >12.5 µg/mL
CO[C@H]1/C=C/O[C@@]2(C)Oc3c(C)c(O)c4c(=O)c(c5oc6cc(N7CCN(CC(C)C)CC7)cc(=O)c6nc5c4c3=C2O)NC(=O)/C(C)=C\C=C\[C@H](C)[C@H](O)[C@@H](C)[C@@H](O)[C@@H](C)[C@H](OC(C)=O)[C@@H]1C ; endpoint: MIC ; strain or isolate: 2275 (rifampin-resistant) ; value: 0.2 µg/mL
O=C(/C=C/c1ccc([O-])c(C[O-])c1)c1cccc(O)c1 ; endpoint: inhibition ; tested at: 12.5 µg/mL ; value: 53%
CCCCCCCCCCCNCCNCCC ; endpoint: MIC ; value: 25 µM
COc1ccc(/C=C/C(=O)c2ccc(F)cc2O)cc1 ; endpoint: inhibition ; tested at: 12.5 µg/mL ; value: 63%
CC[C@H]1OC(=O)[C@H](C)[C@@H](O[C@H]2C[C@@](C)(OC)[C@@H](O)[C@H](C)O2)[C@H](C)[C@@H](O[C@@H]2O[C@H](C)C[C@H](N(C)C)[C@H]2O)[C@](C)(O)C[C@@H](C)C(=O)[C@H](C)[C@@H](O)[C@]1(C)O ; endpoint: MIC ; strain or isolate: ATCC 35823 ; value: >8 µg/mL
CC(CNC1CCCCCCC1)NC[C@@H]1CC[C@H]2C[C@@H]1C2(C)C ; endpoint: MIC ; value: 12.5 µM
CC(C)(C)OC(=O)NC(Cc1c[nH]c2ccccc12)C(=O)NC(Cc1ccccc1)C(=O)NN ; method: BACTEC ; endpoint: MIC bound ; strain or isolate: H37Rv ; value: >12.5 µg/mL
CC[C@H]1OC(=O)[C@H](C)[C@@H](O[C@H]2C[C@@](C)(OC)[C@@H](O)[C@H](C)O2)[C@H](C)[C@@H](O[C@@H]2O[C@H](C)C[C@H](N(C)C)[C@H]2O)[C@](C)(OC)C[C@@H](C)C(=O)[C@H](C)[C@@H](O)[C@]1(C)O ; endpoint: MIC ; strain or isolate: ATCC 35827 ; value: >8 µg/mL
COc1ccc(/C=C/C(=O)c2cccc(I)c2O)cc1 ; endpoint: EC50 ; value: >12.5 µg/mL
N#Cc1ncc(C[P+](c2ccccc2)(c2ccccc2)c2ccccc2)nc1N.[Cl-] ; method: BACTEC ; endpoint: MIC ; strain or isolate: H37Rv ; value: ≥12.5 µg/mL
CCOC(=O)Nc1cc(N)c([N+](=O)[O-])c(NC(=O)OCC)n1 ; endpoint: EC50 ; strain or isolate: H37Rv ; value: >12.5 µg/mL
Cc1c(O)c(=O)ccn1CCO ; method: BACTEC ; endpoint: MIC ; strain or isolate: H37Rv ; value: ≥12.5 µg/mL
Nc1cc(=O)[nH]c(N)n1 ; endpoint: MIC ; strain or isolate: H37Rv ; value: >100 µg/mL
C[C@H]1C[C@H](N)CN1c1cc2c(cc1F)c(=O)c(C(=O)O)cn2-c1ccc(F)cc1F ; endpoint: MBC ; strain or isolate: ATCC 35826 ; value: 8 µg/mL
CCCCCCCCCCCCCC1=C(O)c2ncccc2C(=O)C1=O ; method: resazurin ; endpoint: MIC bound ; strain or isolate: H37Rv ; value: >6.25 µg/mL
CC(NCCN[C@@H](C)C1CCCCC1)C12CC3CC(CC(C3)C1)C2 ; endpoint: MIC ; value: 50 µM
c1ccc2c(c1)ncc1cc3c(cc12)[nH]c1ccccc13 ; method: resazurin ; endpoint: MIC bound ; strain or isolate: H37Rv ; value: >6.25 µg/mL
OCc1ccccc1Sc1ccccc1CNCCNCCCCc1ccccc1 ; endpoint: MIC ; value: 25 µM
COc1ccc(C(C)NNC(=O)c2cc[n+]([B]C#N)cc2)cc1OC ; method: BACTEC ; endpoint: inhibition ; tested at: 0.5 µM ; value: 0%
Cl.Nc1nc(Cl)nc(NCCCN2CCCCC2)n1 ; endpoint: MIC ; strain or isolate: H37Rv ; value: >100 µg/mL
CC(C)c1ccc2c(c1)CC[C@H]1[C@](C)(CNCCNCC3CCCO3)CCC[C@]21C ; endpoint: MIC ; value: 25 µM
CN(C(=O)C[n+]1ccccc1)c1ccc(N(C)C(=O)C[n+]2ccccc2)cc1.[Cl-] ; endpoint: MIC ; strain or isolate: H37Rv ; value: >100 µg/mL
CC[C@H](CO)NCCNC[C@]1(C)CCC[C@]2(C)c3ccc(C(C)C)cc3CC[C@@H]12 ; endpoint: MIC ; value: 50 µM
S=C(Nc1ccc(-c2ccccc2)cc1)Nc1ccc(-c2ccccc2)cc1 ; endpoint: MIC ; strain or isolate: H37Rv ; value: >100 µg/mL
CCCCCCCCCCCNCCNCc1ccccc1F ; endpoint: MIC ; value: 25 µM
CN(C)c1ccc(/C=C/C(=O)c2ccccn2)cc1 ; endpoint: EC50 ; strain or isolate: H37Rv ; value: >12.5 µg/mL
Cl.ClCCCSCCN1CCSCC1 ; endpoint: MIC ; strain or isolate: H37Rv ; value: >100 µg/mL
c1ccc(CCCCNCCNCCC(c2ccccc2)c2ccccc2)cc1 ; endpoint: MIC ; value: 12.5 µM
NCC[C@H](O)C(=O)N[C@@H]1C[C@H](N)[C@@H](O[C@H]2O[C@H](CN)[C@@H](O)[C@H](O)[C@H]2O)[C@H](O)[C@H]1O[C@H]1O[C@H](CO)[C@@H](O)[C@H](N)[C@H]1O ; method: broth dilution / resazurin ; endpoint: MIC ; strain or isolate: MDR2 ; value: 16 µg/mL
Nc1ncccc1/C=C/C(=O)c1ccc2c(ccc3ccccc32)c1 ; endpoint: EC50 ; strain or isolate: H37Rv ; value: <12.5 µg/mL
CCOC(=O)N1CC(C)N(C(=O)OCC)CC1C ; method: BACTEC ; endpoint: MIC ; strain or isolate: H37Rv ; value: ≥12.5 µg/mL
CO[C@H]1/C=C/O[C@@]2(C)Oc3c(C)c(O)c4c(O)c(c(/C=N/N5CCN(C/C=C/c6ccccc6)CC5)c(O)c4c3C2=O)NC(=O)/C(C)=C\C=C\[C@H](C)[C@H](O)[C@@H](C)[C@@H](O)[C@@H](C)[C@H](OC(C)=O)[C@@H]1C ; endpoint: MIC ; strain or isolate: 29 (rifampin-resistant) ; value: 0.05 µg/mL
Cc1ccc(C)n1-c1ccc(S(N)(=O)=O)cc1 ; endpoint: MIC ; strain or isolate: H37Rv ; value: >100 µg/mL
O=S(=O)(O)c1cc(O)c2c(N=Nc3ccc(Nc4ccccc4)c4c(S(=O)(=O)O)cccc34)cc(S(=O)(=O)O)cc2c1 ; method: BACTEC ; endpoint: inhibition ; strain or isolate: H37Rv ; tested at: 12.5 µg/mL ; value: 0%
O=C(O)CNc1ccc(O)cc1 ; endpoint: MIC ; strain or isolate: H37Rv ; value: 100 µg/mL
COc1cccc2c1C(=O)c1c(O)c3c(c(O)c1C2=O)CC(O)(C1(C)OCCO1)CC3O ; method: BACTEC ; endpoint: MIC ; strain or isolate: H37Rv ; value: ≥12.5 µg/mL
CC1COc2c(N3CCN(C)CC3)c(F)cc3c(=O)c(C(=O)O)cn1c23 ; endpoint: MBC ; strain or isolate: ATCC 35827 ; value: 8 µg/mL
CCCCC(CC)CN1CN(CC(CC)CCCC)CC(C)(NCCNC[C@@H](C)O)C1 ; endpoint: MIC ; value: 25 µM
CC(=O)c1ccc(Br)cc1 ; endpoint: MIC ; strain or isolate: H37Rv ; value: >100 µg/mL
CCOC(=O)Nc1cc(NCC(O)CN(C)c2ccc(OC)cc2)c([N+](=O)[O-])c(N)n1 ; endpoint: EC50 ; strain or isolate: H37Rv ; value: >12.5 µg/mL
CCCCCCCN ; endpoint: MIC ; strain or isolate: H37Rv ; value: 200 µg/mL
CCOc1ccc(-c2nc(-c3oc4ccccc4c(=O)c3OC(C)=O)cs2)cc1 ; method: BACTEC ; endpoint: MIC bound ; strain or isolate: H37Rv ; value: >12.5 µg/mL
CC(=O)Nc1ccc(S(=O)(=O)N(C)CCO)cc1 ; endpoint: MIC ; strain or isolate: H37Rv ; value: >100 µg/mL
O=C(O)CCCCCCCC(O)C(O)CCCCCCO ; method: BACTEC ; endpoint: inhibition ; strain or isolate: H37Rv ; tested at: 12.5 µg/mL ; value: 8%
Cc1ccc2nc(-c3ccc(N(C)C)cc3)ccc2c1 ; endpoint: MIC ; strain or isolate: H37Rv ; value: >100 µg/mL
COc1ccc(C2Oc3ccc(C(=O)O)cc3C(=O)C2O)cc1 ; endpoint: inhibition ; tested at: 12.5 µg/mL ; value: 0%
CCOC(=O)Nc1cc(N(C)CC(O)c2ccccc2)c(N)c(N)n1 ; endpoint: EC50 ; strain or isolate: H37Rv ; value: >12.5 µg/mL
O=C(O)c1ccc2ccccc2c1O ; endpoint: MIC ; strain or isolate: H37Rv ; value: >100 µg/mL
O=C1C[C@@H](c2ccc(O)cc2)Oc2cc(O)c(-c3c(O)cc4c(c3O)C(=O)C[C@@H](c3ccc(O)cc3)O4)c(O)c21 ; endpoint: inhibition ; strain or isolate: H37Rv ; tested at: 12.5 µg/mL ; value: 0%
Cc1nnc(N/N=C/c2ccc([N+](=O)[O-])o2)[nH]c1=O ; method: BACTEC ; endpoint: MIC ; strain or isolate: H37Rv ; value: ≥12.5 µg/mL
Cc1nc2cc3oc4ccccc4c3cc2[nH]1 ; endpoint: MIC ; strain or isolate: H37Rv ; value: >100 µg/mL

Repeating the first 6 entries:

structure | method | endpoint | strain or isolate | tested at | value
O=C(Nc1ccc(NC2=NCCN2)cc1)c1cc(C(=O)Nc2ccc(NC3=NCCN3)cc2)cc([N+](=O)[O-])c1 | resazurin | inhibition | H37Rv | 6.25 µg/mL | 83%
O.O=C(O)c1ccc(S(=O)(=O)[O-])cc1C(=O)O.[K+] |  | MIC | H37Rv |  | >100 µg/mL
NC1CCN(c2nc3c(cc2F)c(=O)c(C(=O)O)cn3-c2ccc(F)cc2F)C1 |  | MIC | ATCC 35827 |  | >8 µg/mL
NNC(=O)c1ccccc1O |  | MIC | H37Rv |  | 25 µg/mL
CCOC(=O)Nc1cc(NCC(=O)CN(C)c2ccccc2)c([N+](=O)[O-])c(N)n1 |  | EC50 | H37Rv |  | >12.5 µg/mL
CCOC(=O)Nc1ccc(C(=O)O)c(O)c1 |  | MIC | H37Rv |  | 100 µg/mL